Compound potency records, mixed from different reports. Data source: NIAID ChemDB in PubChem.

Shared fields: whole-cell or culture tests; species: HIV-1; measure: EC50

An empty or dashed field is not shown.

structure | strain or isolate | changes | cells | read by | conditions | result
Cc1ccc(NC(=O)CSc2nnc(C)n2-c2ccc(C(F)(F)F)cc2)c(Cl)c1 | NL4-3 | RT-K103N Y181C | HeLa + HeLa-JC53 | luciferase | - | 0.23 µM
C[C@H]1CO[C@@H]2Cn3cc(C(=O)NCc4ccc(F)cc4F)c(=O)c(O)c3C(=O)N12 | NL4-3 | R263K | CBMC | RT activity | - | 0.0014 µM
Cc1ncc(-c2ccc(OCCOc3ccccc3Cl)cn2)c(N2CCC(C)(C)CC2)c1[C@H](OC(C)(C)C)C(=O)O | NL4-3 | - | MT-2 | luminescence | - | 0.0011 µM
COCc1nc(Nc2ccc(C#N)cc2)nc(Nc2c(C)cc(/C=C/C#N)cc2C)c1C(=O)NC1CC1 | K103N+Y101C | - | MT4 CMV-EGFP | - | - | 0.0224 µM
CSc1ccc(S)c(C(=O)N2CCN(C(=O)C(=O)c3c[nH]c4cccc(F)c34)CC2)c1 | - | - | HeLa + HELA CD4+/CCR5 | luciferase | - | <10 µM
COc1ccc2sc3c(c2c1)N(CC(C)C)CCn1cnnc1-3 | - | - | OM-10.1 | p24 | - | 0.02 µM
COc1ccccc1C(=O)Nc1ccc(Cl)c(C(=O)OC(C)C)c1 | UC781-R (RT-Y181C) | RT-Y181C | CEM + CEM-SS | cytopathic effect / XTT | - | 10.1 µM
COc1cc(-c2ccc(N=Nc3ccc4c(S(=O)(=O)O)cc(S(=O)(=O)O)c(N)c4c3O)c(OC)c2)ccc1N=Nc1ccc2c(S(=O)(=O)O)cc(S(=O)(=O)O)c(N)c2c1O | 214 | - | CEM + CEM-SS | RT activity | - | 1.1 µM
O=C1Nc2ccc(F)cc2C(C#Cc2ccco2)(C(F)(F)F)O1 | - | RT-K103N | - | - | - | <0.3293 µM
CC(C)=CCOc1cc(NC(=S)c2ccsc2C)ccc1Cl | NL4-3 | RT-K103N | CEM + CEM-SS | p24 | - | 0.07 µM
Cc1ncc(-c2ccc(OCCOc3cccnc3)cn2)c(N2CCC(C)(C)CC2)c1[C@H](OC(C)(C)C)C(=O)O | NL4-3 | - | MT-2 | luminescence | - | 0.0049 µM
Cc1occc1C(=S)Nc1ccc(Cl)c(C(=O)OC(C)C)c1 | 4xAZT/L100I(RT-D67N K70R T215Y K219Q L100I) | RT-D67N K70R L100I T215Y K219Q | CEM + CEM-SS | cytopathic effect / XTT | - | 0.9 µM
CCOc1ccc2sc3c(c2c1)N(CCO)CCNC3=O | - | - | OM-10.1 | p24 | - | 0.5 µM
CCC(=O)c1ccc(F)c([C@@H]2C[C@@H]2NC(=O)Nc2ccc(C#N)cn2)c1O | LAI | NNRTI-resistant (RT V179D) | TZM-bl | β-galactosidase / luminescence | - | 0.00073 µM
CC(C)=CCOC1(C(F)(F)F)OC(=O)Nc2ccc(F)cc21 | - | - | - | - | - | <0.00298 µM
CC1CC(C)CN(S(=O)(=O)c2ccccc2[N+](=O)[O-])C1 | 7324-1 | - | HeLa | GFP / fluorescence | - | 1.1 µM
Cc1cc(S(N)(=O)=O)ccc1NC(=O)COc1ccc(Cl)cc1C(=O)c1cc(F)cc(C(F)(F)F)c1 | HXB2 (RT-K103N G100I) Recombinant | RT-L100I K103N | HeLa + HELA CD4+ | β-galactosidase | - | <0.01 µM
Cc1cc(S(N)(=O)=O)ccc1NC(=O)COc1ccc(Cl)cc1C(=O)c1cc(F)cc(C(F)(F)F)c1 | IIIB | RT-K103N | HELA MAGI | luciferase | - | 0.0019 µM
COc1cccc(OCCOc2ccc(-c3cnc(C)c([C@H](OC(C)(C)C)C(=O)O)c3N3CCC(C)(C)CC3)nc2)c1 | NL4-3 | - | MT-2 | luminescence | - | 0.0013 µM
CC(C)=CCOc1cc(NC(=S)c2ccoc2C)ccc1Cl | UC040-R (RT-Y181C) | RT-Y181C | CEM + CEM-SS | cytopathic effect / XTT | - | 1 µM
Cc1ncc(-c2ccc(OCc3ccncc3)cn2)c(N2CCC(C)(C)CC2)c1[C@H](OC(C)(C)C)C(=O)O | NL4-3 | - | MT-2 | luminescence | - | 0.0075 µM
Cc1ccsc1C(=S)Nc1ccc(Cl)c(/C=N/OC(C)(C)C)c1 | IIIB | - | CEM + CEM-SS | cytopathic effect / XTT | - | 0.1 µM
Cc1ncc(-c2ccc(NCCOc3ccc(F)cc3)nc2)c(N2CCC(C)(C)CC2)c1[C@H](OC(C)(C)C)C(=O)O | NL4-3 | - | MT-2 | luminescence | - | 0.002 µM
C=C(C)CN1CCNC(=O)c2sc3ccc(OCCC)cc3c21 | - | - | OM-10.1 | p24 | - | <0.08 µM
Cc1ncc(-c2ccc(OCCOc3ccc(F)cc3)cn2)c(N2CCC(C)(C)CC2)c1[C@H](OC(C)(C)C)C(=O)O | NL4-3 | - | MT-2 | luminescence | - | 0.0007 µM
O=C1Nc2ccc(F)cc2C(OCC=C(Cl)Cl)(C(F)(F)F)O1 | - | - | - | - | - | <0.01194 µM
Cc1cc(S(N)(=O)=O)ccc1NC(=O)COc1ccc(Cl)cc1C(=O)c1cc(Cl)cc(C#N)c1 | HXB2 | RT-L100I | HeLa + HELA CD4+ | β-galactosidase | - | <0.01 µM
CN1c2ccccc2C2C1C=C(C#N)C(=O)N2c1ccc([N+](=O)[O-])cc1 | G-3 | - | HeLa | GFP / fluorescence | - | 0.02 µM
COc1ccc2sc3c(c2c1)SCC/C3=N\O | - | - | OM-10.1 | p24 | - | 0.1 µM
COCc1nc(Nc2ccc(C#N)cc2)nc(Nc2c(C)cc(/C=C/C#N)cc2C)c1C(=O)NCc1cccs1 | K103N+Y101C | - | MT4 CMV-EGFP | - | - | 0.0912 µM
Cc1ccc2c(C)cccc2c1-n1c(C)nnc1SCC(=O)Nc1ccccc1Br | NL4-3 | RT-Y188L | HeLa + HeLa-JC53 | luciferase | - | 0.33 µM
Cc1ncc(-c2ccc(OCCOC3CCCC3)cn2)c(N2CCC(C)(C)CC2)c1[C@H](OC(C)(C)C)C(=O)O | NL4-3 | - | MT-2 | luminescence | - | 0.0007 µM
Cc1ccc(C)n1-c1ccc(C(=O)O)c(O)c1 | 93IN101 R5 CLADE C | - | PBMC + MT-2 | p24 | - | 4.45 µM
CC[C@]1(CO)O[C@@H](n2cnc3c(N)ncnc32)C[C@@H]1O | - | Q151M (delta)Env | HOS | luciferase | - | >0.52 µM
Cc1cc(S(N)(=O)=O)ccc1NC(=O)COc1ccc(Cl)cc1C(=O)c1cc(F)cc(F)c1 | HXB2 | RT-G190E | HeLa + HELA CD4+ | β-galactosidase | - | <0.01 µM
C[C@H]1CN(C(=O)c2ccccc2)CCN1C(=O)C(=O)c1c[nH]c2cccc(Cl)c12 | - | - | HeLa + HELA CD4+/CCR5 | luciferase | - | <10 µM
CC(C)CN(C[C@@H](O)[C@H](Cc1ccccc1)NC(=O)O[C@H]1CO[C@H]2OCC[C@H]21)S(=O)(=O)c1ccc2c(c1)OCO2 | MDR/G | - | PHA-PBM | p24 | - | 0.0034 µM
C[C@@H]1CN(C(=O)c2cccc(N)c2)CCN1C(=O)C(=O)c1c[nH]c2c(F)ccc(F)c12 | - | - | HeLa + HELA CD4+/CCR5 | luciferase | - | <10 µM
Cc1cc(C#N)cc(C)c1Oc1nc(Nc2ccc(C#N)cc2)nc(N)c1Br | MJ4 C | - | HEK293T | luciferase | - | 1.2 nM
Cc1cc(C#N)cc(C(=O)c2cc(Cl)ccc2OCC(=O)Nc2ccc(OCCCN3CC=CC3)cc2C)c1 | HXB2 | RT-K103N P225H | HeLa + HELA CD4+ | β-galactosidase | - | <0.01 µM
COCc1nc(Nc2ccc(C#N)cc2)nc(Nc2c(C)cc(/C=C/C#N)cc2C)c1C(=O)NCCC#N | L1001+K103N | - | MT4 CMV-EGFP | - | - | 0.0282 µM
CC(C)=CCOc1cc(NC(=S)c2ccsc2C)ccc1Cl | NL4-3 (RT V179D) | RT-V179D | CEM + CEM-SS | cytopathic effect / XTT | - | 0.006 µM
O=C(C(=O)N1CCN(C(=O)c2cccc(O)c2)CC1)c1c[nH]c2cccc(F)c12 | - | - | HeLa + HELA CD4+/CCR5 | luciferase | - | <10 µM
Cc1occc1C(=S)Nc1ccc(Cl)c(C(=O)OCC2CC2)c1 | NL4-3 | RT-Y181C | CEM + CEM-SS | cytopathic effect / XTT | - | 0.2 µM
C[C@@H]1CN(C(=O)c2ccccc2)CCN1C(=O)C(=O)c1c[nH]c2cccc(F)c12 | - | - | HeLa + HELA CD4+/CCR5 | luciferase | - | <10 µM
Cc1cc(C#N)cc(C(=O)c2cc(Cl)ccc2OCC(=O)Nc2ccc(S(N)(=O)=O)nc2C)c1 | HXB2 | RT-V106I Y181C | HeLa + HELA CD4+ | β-galactosidase | - | <0.01 µM
Cc1occc1C(=S)Nc1ccc(Cl)c(COC(C)(C)C)c1 | RF | - | CEM + CEM-SS | cytopathic effect / XTT | - | 0.018 µM
Cc1ccc(-c2ccc(NC(=O)N3CCC4(CCO4)CC3)cc2)cc1 | CH119 | - | TZM-bl | luminescence | pseudotyped | >30 µM
Cc1cc(C#N)cc(C(=O)c2cc(Cl)ccc2OCC(=O)Nc2ccc(S(N)(=O)=O)cc2C)c1 | HXB2 | RT-L100I | HeLa + HELA CD4+ | β-galactosidase | - | <0.01 µM
CC(C)(C)O/N=C/c1cc(NC(=S)c2ccsc2)ccc1Cl | RF | - | CEM + CEM-SS | cytopathic effect / XTT | - | 0.095 µM
CNCc1nnc(SCC(=O)Nc2ccc(C)cc2Br)n1-c1ccc(C)cc1 | NL4-3 | RT-K103N Y181C | HeLa + HeLa-JC53 | luciferase | - | >10 µM
C=CCO/N=C/c1cc(NC(=S)c2ccoc2C)ccc1Cl | NL4-3 | RT-V179D | CEM + CEM-SS | cytopathic effect / XTT | - | 0.66 µM
Cc1ccc(NC(=O)CSc2nnc(C)n2-c2c(C)cc(C)c3ccccc23)c(Cl)c1 | NL4-3 | RT-Y188L | HeLa + HeLa-JC53 | luciferase | - | 0.09 µM
O=C1Nc2ccc(Cl)cc2C(C#Cc2ccoc2)(C(F)(F)F)O1 | - | - | - | - | - | <0.0038 µM
COCc1nc(Nc2ccc(C#N)cc2)nc(Nc2c(C)cc(/C=C/C#N)cc2C)c1C(=O)N(C)OC | K103N + Y181C | - | MT4 CMV-EGFP | - | - | 0.0724 µM
Cc1cc2[nH]cnc2cc1NC(=O)COc1ccc(Cl)cc1C(=O)c1cc(F)cc(C(F)(F)F)c1 | WTRVA | - | HeLa + HELA CD4+ | β-galactosidase | - | <0.01 µM
CCCc1cc(=O)oc2c3c(c4c(c12)OC(C)(C)CC4)O[C@@H](C)[C@H](C)[C@@H]3O | NL4-3 1 (RT K101E) | RT-K101E | CEM + CEM-SS | XTT | - | 3.5 µM
COc1ccc2c(c1)C1=C(CC2)C(=O)NCCN1Cc1cccc(C)c1 | - | - | OM-10.1 | p24 | - | 0.2 µM
C=CCNC(=O)c1c(COC)nc(Nc2ccc(C#N)cc2)nc1Nc1c(C)cc(/C=C/C#N)cc1C | MDR | - | MT4 CMV-EGFP | - | - | 0.191 µM
CC(=O)Oc1cccc(C(=O)N2CCN(C(=O)C(=O)c3c[nH]c4cccc(F)c34)CC2)c1 | - | - | HeLa + HELA CD4+/CCR5 | luciferase | - | <10 µM
COc1cccc2[nH]cc(C(=O)C(=O)N3CCN(C(=O)c4ccccc4)C[C@H]3C)c12 | BaL | - | Macrophage/CCR5 | p24 / ELISA | - | 0.0084 µM
COC(=O)c1cccc2[nH]cc(C(=O)C(=O)N3CCN(C(=O)c4ccccc4)CC3CO)c12 | - | - | HeLa + HELA CD4+/CCR5 | luciferase | - | <10 µM
COCc1nc(Nc2ccc(C#N)cc2)nc(Nc2c(C)cc(/C=C/C#N)cc2C)c1C(=O)N(C)CCN(C)C | IIIB | - | MT4 CMV-EGFP | - | - | 0.0324 µM
COc1ccc(Cl)c2[nH]cc(C(=O)C(=O)N3CCN(C(=O)c4ccc(N)cc4)C[C@H]3C)c12 | - | - | HeLa + HELA CD4+/CCR5 | luciferase | - | <10 µM
COCc1nc(Nc2ccc(C#N)cc2)nc(Nc2c(C)cc(/C=C/C#N)cc2C)c1C(=O)N1CCN(CCO)CC1 | MDR | - | MT4 CMV-EGFP | - | - | 6.46 µM

The last 6 rows once more:

structure | strain or isolate | changes | cells | read by | conditions | result
CC(=O)Oc1cccc(C(=O)N2CCN(C(=O)C(=O)c3c[nH]c4cccc(F)c34)CC2)c1 | - | - | HeLa + HELA CD4+/CCR5 | luciferase | - | <10 µM
COc1cccc2[nH]cc(C(=O)C(=O)N3CCN(C(=O)c4ccccc4)C[C@H]3C)c12 | BaL | - | Macrophage/CCR5 | p24 / ELISA | - | 0.0084 µM
COC(=O)c1cccc2[nH]cc(C(=O)C(=O)N3CCN(C(=O)c4ccccc4)CC3CO)c12 | - | - | HeLa + HELA CD4+/CCR5 | luciferase | - | <10 µM
COCc1nc(Nc2ccc(C#N)cc2)nc(Nc2c(C)cc(/C=C/C#N)cc2C)c1C(=O)N(C)CCN(C)C | IIIB | - | MT4 CMV-EGFP | - | - | 0.0324 µM
COc1ccc(Cl)c2[nH]cc(C(=O)C(=O)N3CCN(C(=O)c4ccc(N)cc4)C[C@H]3C)c12 | - | - | HeLa + HELA CD4+/CCR5 | luciferase | - | <10 µM
COCc1nc(Nc2ccc(C#N)cc2)nc(Nc2c(C)cc(/C=C/C#N)cc2C)c1C(=O)N1CCN(CCO)CC1 | MDR | - | MT4 CMV-EGFP | - | - | 6.46 µM

ECn: concentration that inhibits the pathogen or its effect by n%. Rows are shuffled and stem from different studies.